Reference: PubChem BioAssay AID624099 (ICCB-Longwood, 2012)
In all, the deposit lists about 21,000 reagents; this is a random part of them. Of all reagents, 497 (2.4%) are marked active. 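Higher z means weaker E2 silencing; only reporter increases were scored, and knock-downs that hurt cell survival may mask genuine repressor factors.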 Unmarked entries are inactive. Reagents against one gene are numbered here.

Test: 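Human genes that papillomavirus E2 requires to repress the HPV18 LCR promoter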 (primary screen)
Cells: human C33A cervical carcinoma cells (HPV-negative) stably expressing BPV1 E2 and an HPV18 LCR luciferase reporter
Reagents: siRNA pool against human genes, 40 nM
Duration: 72 h
Detection: 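Per-well luciferase luminescence, z-scored on each plate against the plate mean and SD with control wells left out, then averaged across three replicate plates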
Direction: mean z-score and z-score: higher = stronger reporter signal, weaker E2 silencing
Hit rule: 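Mean z ≥ 2 together with z ≥ 2 in two or more of the three replicates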

gene,pool no.,mean z-score,"z-score, replicate A","z-score, replicate B","z-score, replicate C"
SIM1 (SIM bHLH transcription factor 1),1,-1.14,-1.24,-1.06,-1.12
CDT1 (chromatin licensing and DNA replication factor 1),1,-1.51,-1.33,-1.66,-1.53
LINC00319 (long independently transcribed non-coding RNA 319),1,-0.51,-0.72,-0.53,-0.27
LOC388577 (retired record),1,0.68,0.85,0.81,0.37
LOC388893 (retired record),1,-1.02,-1.21,-1.26,-0.59
DNAJB4 (DnaJ heat shock protein family (Hsp40) member B4),1,0.4,0.57,0.27,0.35
DAB2IP (DAB2 interacting protein),1,1,0.93,1.18,0.89
CARD10 (caspase recruitment domain family member 10),1,-1.22,-1.03,-1.57,-1.07
ABR (ABR activator of RhoGEF and GTPase),1,-0.05,0.17,-0.32,0
TXNDC16 (thioredoxin domain containing 16),1,1.2,1.04,1.25,1.31
HOMER1 (homer scaffold protein 1),1,0.32,0.24,0.51,0.21
RELN (reelin),1,0.31,0.4,0.36,0.18
KIF1C (kinesin family member 1C),1,0.68,0.68,0.55,0.81
FBXO9 (F-box protein 9),1,-0.27,-0.28,-0.3,-0.23
RUSC1 (RUN and SH3 domain containing 1),1,-1.16,-1.36,-1.01,-1.13
KCNE5,1,-0.1,-0.35,0.13,-0.09
LOC345537 (retired record),1,1.93,1.89,1.8,2.1
BPIFB2 (BPI fold containing family B member 2),1,-0.12,-0.39,0.21,-0.18
"METTL1 (methyltransferase 1, tRNA methylguanosine)",1,-1.48,-1.61,-1.63,-1.19
COLQ,1,-0.67,-0.63,-0.76,-0.6
SIK3 (SIK family kinase 3),1,-0.1,0.04,-0.43,0.09
DNAJA2 (DnaJ heat shock protein family (Hsp40) member A2),1,-0.25,-0.35,-0.17,-0.23
TMPRSS12 (transmembrane serine protease 12),1,0.33,0.04,0.44,0.5
LOC388214 (retired record),1,0.2,0.28,0.11,0.2
IGFBP1 (insulin like growth factor binding protein 1),1,-0.33,-0.28,-0.76,0.04
DOCK8-AS1 (DOCK8 antisense RNA 1),1,0.51,0.19,0.53,0.81
SLX1B (structure-specific endonuclease subunit SLX1B),1,1.46,1.14,1.67,1.57
PDCD4 (programmed cell death 4),1,-0.36,-0.15,-0.53,-0.4
C1QL2 (complement C1q like 2),1,0.18,0.37,-0.18,0.35
SCRG1 (stimulator of chondrogenesis 1),1,0.19,0.5,0.3,-0.25
MAD2L1 (mitotic arrest deficient 2 like 1),1,0.89,0.94,0.99,0.75
ZNF610 (zinc finger protein 610),1,-0.68,-0.56,-0.76,-0.71
ANKRD62 (ankyrin repeat domain 62),1,0.01,-0.44,0.43,0.03
CRABP1 (cellular retinoic acid binding protein 1),1,0.2,0.01,0.2,0.38
AP3S2 (adaptor related protein complex 3 subunit sigma 2),1,0.41,0.38,0.5,0.35
LRRC20 (leucine rich repeat containing 20),1,-0.54,-0.55,-0.36,-0.71
UQCRFS1,1,-0.13,0.23,-0.35,-0.29
PIEZO2 (piezo type mechanosensitive ion channel component 2),1,0.03,0.32,0.1,-0.33
PIEZO2 (piezo type mechanosensitive ion channel component 2),2,-0.43,-0.52,-0.25,-0.52
PIEZO2 (piezo type mechanosensitive ion channel component 2),3,-1.03,-1.13,-0.73,-1.23

In a second layout: results already given.
RELN (reelin)
- mean z-score: 0.31
- z-score, replicate A: 0.4
- z-score, replicate B: 0.36
- z-score, replicate C: 0.18

KIF1C (kinesin family member 1C)
- mean z-score: 0.68
- z-score, replicate A: 0.68
- z-score, replicate B: 0.55
- z-score, replicate C: 0.81

FBXO9 (F-box protein 9)
- mean z-score: -0.27
- z-score, replicate A: -0.28
- z-score, replicate B: -0.3
- z-score, replicate C: -0.23
